Reference: patent US20050226885A1

Target: IL2 receptors expressed on Raji cells
Assay: cell-based or functional assay

## C215FabSEAD227A-Q-hIL2 (from UniProt P0A0L2 25-257; P60568 21-153)
  potency in killing of Raji cells (SDCC assay), against C215FabSEAD227A (fold higher potency): 10
